# From the supplement of paper PMC12637763
# This is one part of the list. Env chains of viruses from a treatment-interruption trial, translated from the printed DNA. IC50 / IC80 of two broadly neutralizing antibodies; lower = more sensitive virus; >50 µg/ml means not reached and <0.001 µg/ml is below the lowest dose. No active / inactive call.
# Key:
# [1] = molecular target: antibody 10-1074; assay: neutralization IC50; higher = virus less sensitive to the antibody
# Experimental: (§1)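 Pseudovirus bearing the Env chain mixed with antibody, from 50 µg/ml in fivefold dilutions, on TZM-bl reporter cells, in duplicate.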
# [2] = molecular target: antibody 3BNC117; assay: as above
# Experimental: as §1
# [3] = molecular target: antibody 10-1074; assay: neutralization IC80; higher = virus less sensitive to the antibody
# Experimental: as §1
# [4] = molecular target: antibody 3BNC117; assay: as above
# Experimental: as §1
Binder,neutralization IC50 [1] [µg/mL],neutralization IC50 [2] [µg/mL],neutralization IC80 [3] [µg/mL],neutralization IC80 [4] [µg/mL]
"HIV-1 Env, rebound clone, antibody arm (protein) MRAKGIRKNCQDLLKGGILLLGILMICSAAGNLWVTVYYGVPVWKDATTTLFCASDAKGYSKEAHNVWATHACVPTDPDPREIVMGNVTENFNMWKNDMVDQMHEDIISLWDQSLKPCVKLTPLCVTLNCTNLNITNLNNTNSNTSDTNNNTSSENGSEEMKNCSFNVTTIKGKYQKEYAVLYKLDLAPIDNNDNTSYMLINCNTSVITQACPKISFEPIPIHYCAPAGFAILKCNNKTFNGTGPCTNVSSVQCTHGIRPVVSTQLLLNGSLAEEEVVIRSENFTDNAKTIIVQLKDPIQINCTRPNNNTRKSIHIGPGRAFYATGQIIGNIRQAYCNISKEQWNEALNQTVRKLREQFGNKTMIFNQSSGGDPEIVMHTFNCGGEFFYCNTTQLFNSTWYDTTNSTDSNNNTIKLPCRIKQVINRWQEVGKAMYAPPISGPIRCSSNITGLLLVRDGGNNNSSNSSETFRPGGGNMKDNWRSELYKYKVVKIEPLGVAPTKAKRRVVQRERRAVTLGAMFLGFLGTAGSTMGAASLTLTVQARQLLSGIVQQQSNLLRAIEVHQHMLQLTVWGIKQLQARVLAVERYLKDQQLLGIWGCSGKLICTTTVPWNASWSKKNLSEIWDNMTWIEWEREIQNYTEEIYSLIEKSQNQQAKNEQELLELDKWANLWNWFDITNWLWYIKIFIMIVGGLIGLRIVFTVLSIVNRVRQGYSPLSFQTRLPTQRGPDRPGGTEEEGGERDRDTSRPLVDGFLAIIWVDLRSLFLFSYHRLRDLLLIVTRIVETLGRRGWELLKYWWNLLQYWSQELKNSAISLLNATAIAVAEGTDRVIELIQRAGRAIIHIPRRIRQGLESALL",> 50,0.099,> 50,0.338
"HIV-1 Env, rebound clone, antibody arm (protein) MKVRGMKRNYQHLWGWGTMLLFWMIIMCKAAGNLWVTVYYGVPVWRDAETTLFCASDAKAYDKEVHNVWATHACVPTDPNPQEVRLENVTENFNMWENNMVEQMQTDIISLWDQSLKPCVKLTPLCVTLECTEPKLNSSTSNNSLSSTSNNSQYEEMKNCSFNMTTELRDKQKKVYSLFYKLDIVETDNNSSRYRLINCNTSTLTQACPKVTFEPIPIYYCAPAGFAILKCNDPQFNGTGPCTNVSTVQCTHGIKPVVSTQLLLNGSLAKEQVMIRSKNITDNSKTIIVQLKKPVNITCIRPGNNTRTSIRIGPGQAFYATGEITGDIRKAHCNVSRAEWNRTLQEISTQLQGYFNNKTIIFKNSSGGDLEVTTHSFNCGGEFFYCNTTKLFNSTWYGNETVINGTEASENITLQCRIKQIINMWQRVGQAMYAPPIRGEIRCESNITGLLLTRDGGGGNSSNNETFRPTGGDMRDNWRSELYKYKVVQVEPIGIAPTPAKRRVVEREKRAVGLGAAFLGFLGAAGSTMGAASLTLTVQARQLLSGIVQQQSNLLRAIEAQQHLLKLTVWGIKQLQARVLAVERYLRDQQLLGIWGCSGKLICTTAVPWNSSWSNKSYKDIWDNMTWMQWDKEVLNYTSIIYSLLEESQNQQEKNEQDLLALDKWASLWSWFDISKWLWYIKIFIMIVGGLIGLRIVFTVLSIINRVRQGYSPLSLQTLTPHPEEPDRPGRINEEGGEQDKGRSIRLVNGFLALAWDDLRSLCLFSYHRLRDFISIAARTVELLGRSSLKGLRLGWEGLKYLGNLLGYWSRELKNSAINLIDTIAIAVAGWTDRVIEIVQGSCRAIRNIPRRIRQGAEKALQ",0.281,0.316,3.01,0.728
"HIV-1 Env, rebound clone, antibody arm (protein) MKVRGMKRNYQHLWGWGTMLLFWMIIMCKAAGNLWVTVYYGVPVWRDAETTLFCASDAKAYDKEVHNVWATHACVPTDPNPQEVRLENVTENFNMWENNMVEQMQTDIISLWDQSLKPCVKLTPLCVTLECTEPKLNSSTSNNSLSSTSNNSQYEEMKNCSFNMTTELRDKQKKVYSLFYKLDIVETDNNSSRYRLINCNTSTLTQACPKVTFEPIPIYYCAPAGFAILKCNDPQFNGTGPCTNVSTVQCTHGIKPVVSTQLLLNGSLAKEQVMIRSKNITDNSKTIIVQLKKPVNITCIRPGNNTRTSIRIGPGQAFYATGEITGDIRKAHCNVSRAEWNRTLQEISTQLQGYFNNKTIIFKNSSGGDLEVTTHSFNCGGEFFYCNTTKLFNSTWYGNETVINGTEASENITLQCRIKQIINMWQRVGQAMYAPPIRGEIRCESNITGLLLTRDGGGGNSSNNETFRPTGGDMRDNWRSELYKYKVVQVEPIGIAPTPAKRRVVEREKRAVGLGAAFLGFLGAAGSTMGAASLTLTVQARQLLSGIVQQQSNLLRAIEAQQHLLKLTVWGIKQLQARVLAVERYLRDQQLLGIWGCSGKLICTTAVPWNSSWSNKSYKDIWDNMTWMQWDKEVLNYTSIIYSLLEESQNQQEKNEQDLLALDKWASLWSWFDISKWLWYIKIFIMIVGGLIGLRIVFTVLSIINRVRQGYSPLSLQTLTPHPEEPDRPGRINEEGGEQDKGRSIRLVNGFLALAWDDLRSLCLFSYHRLRDFISIAARTVELLGRSSLKGLRLGWEGLKYLGNLLGYWSRELKNSAINLIDTIAIVVAGWTDRVIEIVQGSCRAIRNIPRRIRQGAEKALQ",0.095,0.04,0.672,0.106
"HIV-1 Env, rebound clone, antibody arm (protein) MKVRGMKRNYQHLWGWGTMLLFWMIIMCKAAGNLWVTVYYGVPVWRDAETTLFCASDAKAYDKEVHNVWATHACVPTDPNPQEVRLENVTENFNMWENNMVEQMQTDIISLWDQSLKPCVKLTPLCVTLECTEPKLNSSTSNNSLSSTSNNSQYEEMKNCSFNMTTELRDKQEKVYSLFYKLDIVETDNNSSRYRLINCNTSTLTQACPKVTFEPIPIYYCAPAGFAILKCNDPQFNGTGPCTNVSTVQCTHGIKPVVSTQLLLNGSLAKEQVMIRSKNITDNSKTIIVQLKKPVNITCIRPGNNTRTSIRIGPGQAFYATGEITGDIRKAHCNVSRAEWNRTLQEISTQLQGYFNNKTIIFKNSSGGDLEVTTHSFNCGGEFFYCNTTKLFNSTWYGNETVINGTEASENITLQCRIKQIINMWQRVGQAMYAPPIRGEIRCESNITGLLLTRDGGGGNSSNNETFRPTGGDMRDNWRSELYKYKVVQVEPIGIAPTPAKRRVVEREKRAVGLGAAFLGFLGAAGSTMGAASLTLTVQARQLLSGIVQQQSNLLRAIEAQQHLLKLTVWGIKQLQARVLAVERYLRDQQLLGIWGCSGKLICTTAVPWNSSWSNKSYKDIWDNMTWMQWDKEVLNYTSIIYSLLEESQNQQEKNEQDLLALDKWASLWSWFDISKWLWYIKIFIMIVGGLIGLRIVFTVLSIINRVRQGYSPLSLQTLTPHPEEPDRPGRINEEGGEQDKGRSIRLVNGFLALAWDDLRSLCLFSYHRLRDFISIAARTVELLGRSSLKGLRLGWEGLKYLGNLLGYWSRELKNSAINLIDTIAIAVAGWTDRVIEIVQGSCRAIRNIPRRIRQGAEKALQ",0.068,0.034,0.587,0.101
"HIV-1 Env, rebound clone, antibody arm (protein) MKVRGMKRNYQHLWGWGTMLLFWMIIMCKAAGNLWVTVYYGVPVWRDAETTLFCASDAKAYDKEVHNVWATHACVPTDPNPQEVRLENVTENFNMWENNMVEQMQTDIISLWDQSLKPCVKLTPLCVTLECTEPKLNSSTSNNSLSSTSNNSQYEEMKNCSFNMTTELRDKQKKVYSLFYKLDIVETDNNSSRYRLINCNTSTLTQACPKVTFEPIPIYYCAPAGFAILKCNDPQFNGTGPCTNVSTVQCTHGIKPVVSTQLLLNGSLAKEQVMIRSKNITDNSKTIIVQLKKPVNITCIRPGNNTRTSIRIGPGQAFYATGEITGDIRKAHCNVSRAEWNRTLQEISTQLQGYFNNKTIIFKNSSGGDLEVTTHSFNCGGEFFYCNTTKLFNSTWYGNETVINGTEASENITLQCRIKQIINMWQRVGQAMYAPPIRGEIRCESNITGLLLTRDGGGGNSSNKETFRPTGGNMRDNWRSELYKYKVVQVEPIGIAPTPAKRRVVEREKRAVGLGAAFLGFLGAAGSTMGAASLTLTVQARQLLSGIVQQQSNLLRAIEAQQHLLKLTVWGIKQLQARVLAVERYLRDQQLLGIWGCSGKLICTTAVPWNSSWSNKSYKDIWDNMTWMQWDKEVLNYTSIIYSLLEESQNQQEKNEQDLLALDKWASLWSWFDISKWLWYIKIFIMIVGGLIGLRIVFTVLSIINRVRQGYSPLSLQTLTPHPEEPDRPGRINEEGGEQDKGRSIRLVNGFLALAWDDLRSLCLFSYHRLRDFISIAARTVELLGRSSLKGLRLGWEGLKYLGNLLGYWSRELKNSAINLIDTIAIAVAGWTDRVIEIVQGSCRAIRNIPRRIRQGAEKALQ",0.074,0.025,0.476,0.067
"HIV-1 Env, rebound clone, antibody arm (protein) MKVRGMKRNYQHLWGWGTMLLFWMIIMCKAAGNLWVTVYYGVPVWRDAETTLFCASDAKAYDKEVHNVWATHACVPTDPNPQEVRLENVTENFNMWENNMVEQMQTDIISLWDQSLKPCVKLTPLCVTLECTEPKLNSSTSNNSLSSTSNNSQYEEMKNCSFNMTTELRDKQKKVYSLFYKLDIVETDDNSSRYRLINCNTSTLTQACPKVTFKPIPIYYCAPAGFAILKCNDPQFNGTGPCTNVSTVQCTHGIKPVVSTQLLLNGSLAKEQVMIRSKNITDNSKTIIVQLKKPVNITCIRPGNNTRTSIRIGPGQAFYATGEITGDIRKAHCNVSRAEWNRTLQEISTQLQGYFNNKTIIFKNSSGGDLEVTTHSFNCGGEFFYCNTTKLFNSTWYGNETVINGTEASENITLQCRIKQIINMWQRVGQAMYAPPIRGEIRCESNITGLLLTRDGGGGNSSNNETFRPTGGDMRDNWRSELYKYKVVQVEPIGIAPTPAKRRVVEREKRAVGLGAAFLGFLGAAGSTMGAASLTLTVQARQLLSGIVQQQSNLLRAIEAQQHLLKLTVWGIKQLQARVLAVERYLRDQQLLGIWGCSGKLICTTAVPWNSSWSNKSYKDIWDNMTWMQWDKEVLNYTSIIYSLLEESQNQQEKNEQDLLALDKWASLWSWFDISKWLWYIKIFIMIVGGLIGLRIVFTVLSIINRVRQGYSPLSLQTLTPHPEEPDRPGRINEEGGEQDKGRSIRLVNGFLALAWDDLRSLCLFSYHRLRDFISIAARTVELLGRSSLKGLRLGWEGLKYLGNLLGYWSRELKNSAINLIDTIAIAVAGWTDRVIEIVQGSCRAIRNIPRRIRQGAEKALQ",0.187,0.085,0.876,0.284
